Values joined by “and” are separate entries in the source; they are usually repeats but may differ in a detail not shown here. Equal entries are not always repeated. Where two headings read alike, the source gives them in different places.
System: bloodstream form of T. brucei (strain 221)
Conditions: for SITb (selectivity index): ratio of cytotoxic (L6 cells) to anti-T. brucei IC50 values; for IC50: read-out: T. brucei IC50; for IC50 / IC90: bloodstream form; for IC90: read-out: T. brucei IC90
[1] = pH 7.4, mean of triplicate ± SEM

SMILES	SITb (selectivity index)	IC50 [1]	IC90 [1]	selectivity index relative to huprine Y (increased) (SI L6 cells / T. brucei)	selectivity index relative to nifurtimox (increased) (SI L6 cells / T. brucei)	antitrypanosomal potency relative to huprine Y (more potent) (T. brucei IC50 values)	antitrypanosomal potency relative to nifurtimox (more potent) (T. brucei IC50 values)	antitrypanosomal potency relative to huprine Y (more potent) (in terms of the T. brucei IC90 values)	IC50	IC90
CC1=C[C@@H]2Cc3nc4cc(Cl)ccc4c(NCCCCCN)c3[C@H](C1)C2 [5a]	4.2	920 ± 80 nM	2920 ± 430 nM							
CC1CS(=O)(=O)CCN1/N=C/c1ccc([N+](=O)[O-])o1 (stereo not shown) [Nifurtimox, reference compound]	7.3									
CC1=C[C@@H]2Cc3nc4cc(Cl)ccc4c(NCCCCCCCC#N)c3[C@H](C1)C2 [4d]	12.3	620 ± 20 nM	850 ± 10 nM							
CC1=C[C@@H]2Cc3nc4cc(Cl)ccc4c(NCCCCCCCCC#N)c3[C@H](C1)C2 [4e]	25 and 25.1	300 nM and 320 nM	420 ± 10 nM	2 fold	3.5 fold	2 fold	14 fold	7 fold	320 nM	420 nM
CC1=C[C@@H]2Cc3nc4cc(Cl)ccc4c(NCCCCCCC#N)c3[C@H](C1)C2 [4c]	13.5	860 ± 50 nM	1220 ± 30 nM							
CC1=C[C@@H]2Cc3nc4cc(Cl)ccc4c(NCCCCCCN)c3[C@H](C1)C2 [5b]	2.4	2030 ± 100 nM	3090 ± 210 nM							
CC1=C[C@@H]2Cc3nc4cc(Cl)ccc4c(NCCCCCCCCCCC#N)c3[C@H](C1)C2 [4g]		1370 ± 60 nM	1910 ± 20 nM							
